Compound potency records, mixed from different reports. Data source: NIAID ChemDB in PubChem.

Shared fields: tests in culture; species: HIV-1; endpoint: EC50

ECn: concentration that inhibits the pathogen or its effect by n%. Conditions beyond the fields shown may differ between rows. An empty or dashed field is not shown.

{"SMILES": "Cc1cc(S(N)(=O)=O)ccc1NC(=O)COc1ccc(Cl)cc1C(=O)c1cc(C#N)cc(OCF)c1", "mutations": "V106A", "cell line": "HeLa", "result": "0.0084 µM"}
{"SMILES": "Cc1ccc(Cn2c(=O)ccn(CC#N)c2=O)cc1", "strain": "IIIB", "cell line": "PBMC", "result": "94.8 µM"}
{"SMILES": "Cc1cc(S(N)(=O)=O)ccc1NC(=O)COc1ccc(Cl)cc1C(=O)c1cc(C#N)cc(CO)c1", "mutations": "Y181C", "cell line": "HeLa", "result": "0.0064 µM"}
{"SMILES": "CC(C)(C)NC(=O)[C@@H]1C[C@@H]2CCCC[C@@H]2CN1C[C@@H](O)[C@H](Cc1ccccc1)NC(=O)[C@H](CC(N)=O)NC(=O)c1ccc2ccccc2n1", "strain": "LAI", "cell line": "PBMC", "result": "0.0122 µM"}
{"SMILES": "Cc1cn([C@H]2C=C[C@@H](CO)O2)c(=O)[nH]c1=O", "strain": "NL4-3", "cell line": "MDM", "result": "0.3 µM"}
{"SMILES": "c1cc(CN2CCCNCCNCCCNCC2)ccc1CN1CCCNCCNCCCNCC1", "strain": "IIIB Recombinant", "cell line": "MT-4", "result": "0.03 µM"}
{"SMILES": "Cc1cc(S(N)(=O)=O)ccc1NC(=O)COc1ccc(Cl)cc1C(=O)c1cc(C#N)cc(OC(F)(F)F)c1", "mutations": "K103N", "cell line": "HeLa", "result": "0.0002 µM"}
{"SMILES": "N#CCn1ccc(=O)n(Cc2cc(Cl)cc(Cl)c2)c1=O", "strain": "IIIB", "cell line": "PBMC", "result": "0.77 µM"}
{"SMILES": "Cc1cc(C)c2ccc(C)c(-n3c(SCC(=O)Nc4ccc(S(N)(=O)=O)cc4Cl)nnc3C(F)(F)F)c2n1", "mutations": "Y188L", "cell line": "HeLa", "result": "0.004 µM"}
{"SMILES": "Cc1cn([C@H]2C[C@H](N=[N+]=[N-])[C@@H](CO)O2)c(=O)[nH]c1=O", "strain": "PERE98287RT Recombinant", "result": ">8 µM"}
{"SMILES": "Cc1cc(C)cc(Cn2c(=O)ccn(Cc3ccccc3)c2=O)c1", "strain": "IIIB", "cell line": "PBMC", "result": "0.234 µM"}
{"SMILES": "Cc1ccnc2c1NC(=O)c1cccnc1N2C1CC1", "mutations": "RT-M41L T215Y K101E", "cell line": "MT-4", "result": "<1.5 µM"}
{"SMILES": "Cc1cc(Cn2c(=O)ccn(Cc3c(F)cccc3F)c2=O)cc(C)n1", "strain": "IIIB", "cell line": "PBMC", "result": "130 µM"}
{"SMILES": "Cc1nnc(SCC(=O)Nc2ccc(S(N)(=O)=O)cc2Cl)n1-c1cccc2cc(Br)cnc12", "cell line": "HeLa", "result": "0.0008 µM"}
{"SMILES": "Nc1ccn([C@H]2CC[C@@H](CO)O2)c(=O)n1", "conditions": "clinical isolate", "strain": "Clinical isolate", "cell line": "MT-4", "result": "0.4 µM"}
{"SMILES": "Cc1cc(S(N)(=O)=O)ccc1NC(=O)COc1ccc(Cl)cc1C(=O)c1cc(C#N)cc(C(=O)N2CCCC2)c1", "mutations": "Y181C", "cell line": "HeLa", "result": "0.615 µM"}
{"SMILES": "CC(C)=CCN1Cc2cc(Cl)cc3[nH]c(=S)n(c23)C[C@@H]1C", "strain": "BCF01", "mutations": "RT-A98G K103R Y181C", "cell line": "PBMC", "result": ">6.25 µM"}
{"SMILES": "O=[N+]([O-])c1ccccc1S(=O)(=O)c1ccccc1", "strain": "WEJO", "cell line": "PBL", "result": "15.9 µM"}
{"SMILES": "CO[P@](=O)(c1cc(C)cc(/C=C/C#N)c1)c1c(C(N)=O)[nH]c2ccc(Cl)c(F)c12", "strain": "IIIB", "cell line": "H9", "result": "0.0006 µM"}
{"SMILES": "Cc1ccnc2c1NC(=O)c1cccnc1N2C1CC1", "strain": "IIIB Recombinant", "cell line": "MT-4", "result": "0.05 µM"}
{"SMILES": "CNC(=O)c1cc(C#N)cc(C(=O)c2cc(Cl)ccc2OCC(=O)Nc2ccc(S(N)(=O)=O)cc2C)c1", "mutations": "V106A", "cell line": "HeLa", "result": ">2 µM"}
{"SMILES": "Nc1ccn([C@H]2CC[C@@H](CO)O2)c(=O)n1", "strain": "NL4-3", "mutations": "+Vpx", "cell line": "MT-4", "result": "0.308 µM"}
{"SMILES": "CC(=O)Oc1ccc(/C=C/C(=O)O[C@@H](C(=O)O)[C@@H](OC(=O)/C=C/c2ccc(OC(C)=O)c(OC(C)=O)c2)C(=O)O)cc1OC(C)=O", "strain": "NL4-3", "mutations": "AMD2763-resistant", "cell line": "MT-4", "result": ">74 µM"}
{"SMILES": "CC(=O)Nc1cc(C#N)cc(C(=O)c2cc(Cl)ccc2OCC(=O)Nc2ccc(S(N)(=O)=O)cc2C)c1", "mutations": "WTRVA", "cell line": "HeLa", "result": "0.06 µM"}
{"SMILES": "C[C@H](Cn1cnc2c(N)ncnc21)OCP(=O)(O)O", "strain": "NL4-3", "cell line": "Primary T lymphocytes", "result": "1.949 µM"}
{"SMILES": "CCc1nnc(SCC(=O)Nc2ccc(C)cc2Br)n1-c1ccccc1", "cell line": "HeLa", "result": "0.0001 µM"}
{"SMILES": "O=C(Cc1ccccn1)c1cccc(CN2C(=O)N(Cc3ccc4[nH]ncc4c3)[C@H](Cc3ccccc3)[C@H](O)[C@@H](O)[C@H]2Cc2ccccc2)c1", "strain": "RF WT", "cell line": "MT-2", "result": "<0.015 µM"}
{"SMILES": "C[C@H](Cn1cnc2c(N)ncnc21)OCP(=O)(O)O", "strain": "IIIB", "cell line": "CEM", "result": "5 µM"}
{"SMILES": "Cc1cc(C)c(Cn2c(=O)ccn(CC#N)c2=O)c(C)c1", "strain": "IIIB", "cell line": "PBMC", "result": "192 µM"}
{"SMILES": "Cc1cc2cccc(C)c2c(-n2c(C)nnc2SCC(=O)Nc2ccccc2Br)c1C", "mutations": "Y188L", "cell line": "HeLa", "result": "0.2 µM"}
{"SMILES": "N#CCn1ccc(=O)n(Cc2ccc3ccccc3c2)c1=O", "strain": "IIIB", "cell line": "PBMC", "result": "36.7 µM"}
{"SMILES": "O=C(Cn1nccn1)c1cccc(CN2C(=O)N(Cc3ccc4[nH]ncc4c3)[C@H](Cc3ccccc3)[C@H](O)[C@@H](O)[C@H]2Cc2ccccc2)c1", "strain": "RF", "cell line": "MT-2", "result": "<0.015 µM"}
{"SMILES": "Cc1ccnc2c1NC(=O)c1cccnc1N2C1CC1", "strain": "NL4-3", "mutations": "+Vpx", "cell line": "Jurkat cells", "result": "0.095 µM"}
{"SMILES": "Nc1ccn([C@H]2CC[C@@H](CO)O2)c(=O)n1", "strain": "BCF01", "mutations": "RT-A98G K103R Y181C", "cell line": "PBMC", "result": "0.02 µM"}
{"SMILES": "Nc1cc(CN2C(=O)N(Cc3ccc4[nH]ncc4c3)[C@H](Cc3ccccc3)[C@H](O)[C@@H](O)[C@H]2Cc2ccccc2)ccc1F", "strain": "RF", "cell line": "MT-2", "result": "<0.014 µM"}
{"SMILES": "C=C(COCP(=O)(O)O)Cn1cnc2c(=O)[nH]c(N)nc21", "strain": "IIIB", "cell line": "MT-4", "result": "6.6 µM"}
{"SMILES": "CC(C)(C)OC(=O)N[C@@H](Cc1ccccc1)[C@H](O)CNC[C@@H](O)[C@H](Cc1ccc(OCC(=O)N2CCOCC2)cc1)NC(=O)OC(C)(C)C", "strain": "RF", "result": "0.097 µM"}
{"SMILES": "CCOC(=O)c1cc(C#N)cc(C(=O)c2cc(Cl)ccc2OCC(=O)Nc2ccc(S(N)(=O)=O)cc2C)c1", "mutations": "V106A", "cell line": "HeLa", "result": "0.12 µM"}
{"SMILES": "Nc1ccc(CN2C(=O)N(Cc3ccc4[nH]ncc4c3)[C@H](Cc3ccccc3)[C@H](O)[C@@H](O)[C@H]2Cc2ccccc2)cc1-n1cncn1", "strain": "RF WT", "cell line": "MT-2", "result": "<0.035 µM"}
{"SMILES": "Cc1cc(S(N)(=O)=O)ccc1NC(=O)COc1ccc(Cl)cc1C(=O)c1cc(C#N)cc(C(=O)O)c1", "mutations": "V106A", "cell line": "HeLa", "result": ">2 µM"}
{"SMILES": "Nc1nc2c(ncn2[C@H]2CO[C@@H](CO)O2)c(=O)[nH]1", "mutations": "RT-M41L K70R T215Y K219Q", "cell line": "MT-2", "result": "0.22 µM"}
{"SMILES": "COc1cc(C#N)cc(C(=O)c2cc(Cl)ccc2OCC(=O)Nc2ccc(S(N)(=O)=O)cc2C)c1", "mutations": "K103N", "cell line": "HeLa", "result": "0.0005 µM"}
{"SMILES": "O=C1N(Cc2cccc(NCc3nc4ccccc4[nH]3)c2)[C@H](Cc2ccccc2)[C@H](O)[C@@H](O)[C@@H](Cc2ccccc2)N1Cc1ccc2[nH]ncc2c1", "strain": "RF WT", "cell line": "MT-2", "result": "<0.063 µM"}

The last 3 rows once more:

| SMILES | conditions | strain | mutations | cell line | result |
|---|---|---|---|---|---|
| Nc1nc2c(ncn2[C@H]2CO[C@@H](CO)O2)c(=O)[nH]1 | - | - | RT-M41L K70R T215Y K219Q | MT-2 | 0.22 µM |
| COc1cc(C#N)cc(C(=O)c2cc(Cl)ccc2OCC(=O)Nc2ccc(S(N)(=O)=O)cc2C)c1 | - | - | K103N | HeLa | 0.0005 µM |
| O=C1N(Cc2cccc(NCc3nc4ccccc4[nH]3)c2)[C@H](Cc2ccccc2)[C@H](O)[C@@H](O)[C@@H](Cc2ccccc2)N1Cc1ccc2[nH]ncc2c1 | - | RF WT | - | MT-2 | <0.063 µM |